Measured values as given in PMC9094630, “Epidemiological Impact of GII.17 Human Noroviruses Associated With Attachment to Enterocytes” (Frontiers in Microbiology, 2022).

System: T1, GII.4 2012 variant VLP
T1 construct: gene ORF2
Settings: ligand as BSA conjugate (about 20 per BSA, multivalent), immobilized; VLP 2 ng/ul; HBS pH 7.4, 25 C; also ELISA (Figure 4A)

| SMILES | GII.4 variant / 2012 |
| --- | --- |
| C[C@@H]1O[C@@H](O[C@H]2C(O)O[C@H](CO)[C@H](O)[C@@H]2O[C@H]2O[C@H](CO)[C@H](O)[C@H](O)[C@H]2O)[C@@H](O)[C@H](O)[C@@H]1O (some centres unmarked) [B trisaccharide] | 75 RU |
| CC(=O)N[C@H]1[C@H](O[C@H]2[C@@H](O)[C@@H](CO)O[C@@H](O[C@H]3[C@H](O)[C@@H](O)C(O)O[C@@H]3CO)[C@@H]2O)O[C@H](CO)[C@@H](O)[C@@H]1O[C@@H]1O[C@H](CO)[C@H](O)[C@H](O)[C@H]1O[C@@H]1O[C@@H](C)[C@@H](O)[C@@H](O)[C@@H]1O (some centres unmarked) [lacto-N-fucopentaose I] | 1,457 RU |
